Results of unrelated studies side by side (data: NIAID ChemDB).

All rows: tests in culture; organism: Mycobacterium tuberculosis

Inhibition is in % at the dose shown (toxicity tests: loss of growth or viability). MIC50, MIC90 and the like: level of inhibition, or share of isolates inhibited. Conditions beyond the fields shown may differ between rows. Fold resistance has wild type as its base. Two numbers with a dash give a range or band. ECn: concentration that inhibits the pathogen or its effect by n%. Blank or dashed fields: not listed here. MIC bound comes from a single tested concentration.

smiles,cells,changes,dose,strain or isolate,measure,method,result
Cc1cc(=O)oc2c3c(ccc12)OC(c1ccc(Br)cc1)CC3=O,-,-,12.5 µg/mL,H37Rv,inhibition,BACTEC,93%
CCc1ccnc2c(N)cc(C(C)=O)c(OC(C)C)c12,-,-,6.25 µg/mL,H37Rv,inhibition,-,0%
CCOC(=O)C1=C(C(C)=O)C(c2ccccc2[N+](=O)[O-])C(C(C)=O)=C(C(=O)OCC)N1,-,-,12.5 µg/mL,H37Rv,inhibition,BACTEC,12%
Cc1cccc2nc3n(c(=O)c12)-c1ccccc1C3=O,-,-,-,H37Rv,MIC,-,1 µg/mL
COc1ccc(/C=N/NC(=O)CSc2nc3ccc(C)cc3c(=O)n2-c2ccccc2)cc1,-,-,-,H37Rv,MIC,-,>6.25 µg/mL
O=C(Cc1csc2nc(-c3ccccc3)cn12)N/N=C/c1cccs1,-,-,-,H37Rv,EC50,-,>12.5 µg/mL
Cc1ccc(C)c(Sc2ncnc3nc[nH]c23)c1,-,-,-,H37Rv,MIC90,-,>12.5 µg/mL
CCCCCCCSC(=S)NC1c2ccccc2Oc2ccccc21,-,-,-,H37Rv,MIC,BACTEC,32 µg/mL
O=C(Cc1csc2nc(-c3ccccc3)cn12)N/N=C/c1cc(Br)ccc1O,-,-,12.5 µg/mL,H37Rv,inhibition,-,0%
CCc1nc2ccccc2n1CCCCOc1ccccc1,-,Rv1339 V90M,-,H37Rv,MIC90,turbidity / fluorescence,6.2 µM
CC1S/C(=N\N=C2/C(=O)Nc3ccccc32)N(c2ccc(Br)cc2)C1=O,-,-,-,H37Rv,MIC,-,>12.5 µg/mL
CC(=O)Nc1nnc(SSc2nnc(NC(C)=O)s2)s1,-,-,12.5 µg/mL,H37Rv,inhibition,BACTEC,0%
O=C(Cc1csc2nc(-c3ccccc3)cn12)N/N=C/c1ccc(C(=O)O)cc1,-,-,12.5 µg/mL,H37Rv,inhibition,-,0%
COc1ccccc1CSc1ccncc1,-,-,-,H37Rv,MIC90,-,>6.25 µg/mL
CCc1nc2ccccc2n1CCCCNc1ccc(OC)cc1,-,Rv1339 V90M,-,H37Rv,fold resistance,turbidity / fluorescence,0.4
NNC(=O)c1cc(/C=C/c2cccs2)nc2ccccc12,-,-,-,H37Rv,MIC,fluorescence,3.125 µg/mL
CC(=O)c1cc([N+](=O)[O-])c2nc(C3CCCCC3)ccc2c1C1CCCCC1,-,-,-,H37Rv,MIC,-,>6.25 µg/mL
C1CCNC1.S=C(S)N1CCCC1,VERO,-,-,H37Rv,MIC,-,0.8 µg/mL
Cc1ccc(C)c(CSc2nc(=O)[nH]c3nc[nH]c23)c1,-,-,6.25 µg/mL,H37Rv,inhibition,-,5%
Cc1cc2c(cc1C)[n+](=O)c(C(=O)N1CCN(c3ccc(Cl)cc3)CC1)c(C)n2[O-],-,-,-,H37Rv,MIC,-,>6.25 µg/mL
O=Cc1ccc2c(c1)C(=O)c1nc3ccncc3c(=O)n1-2,-,-,-,H37Rv,MIC,-,0.5 µg/mL
Clc1nc(Sc2ccncc2)c2[nH]cnc2n1,-,-,6.25 µg/mL,H37Rv,inhibition,-,45%
O=C1c2cc(I)ccc2-n2c1nc1ncccc1c2=O,-,-,-,H37Rv,MBC,-,4 µg/mL
O=C(CSc1nc2ccc(Cl)cc2c(=O)n1-c1ccccc1)N=Nc1c(O)[nH]c2ccccc12,-,-,-,H37Rv,MIC,-,>12.5 µg/mL
O=[n+]1c2ccccc2n([O-])c2ccccc21,-,-,-,INH-r,MIC,-,1.6 µg/mL
O=C(O)c1cc(/C=C\c2ccc(-c3ccc([N+](=O)[O-])s3)s2)nc2ccccc12,-,-,-,H37Rv,MIC,fluorescence,6.25 µg/mL
CC(=O)O[C@H]1OC(OC/C=C2\C=CC3N=C4C(=O)c5cc(Cl)ccc5N4C(=O)C3=C2)[C@H](OC(C)=O)[C@@H](OC(C)=O)[C@@H]1OC(C)=O,-,-,-,H37Rv,MIC,-,>8 µg/mL
OC(c1cc(-c2ccccc2)nc2cc(Cl)ccc12)C1CCCCN1,-,-,-,H37Rv,MIC,resazurin,3.13 µg/mL
O=C(Nc1nc(-c2cccs2)cs1)c1cc(-c2ccccc2)nc2ccccc12,-,-,-,H37Rv,MIC,fluorescence,>6.25 µg/mL
CC(=O)c1cc([N+](=O)[O-])c2nc(C34CC5CC(CC(C5)C3)C4)ccc2c1,-,-,6.25 µg/mL,H37Rv,inhibition,-,0%
Cc1c(C(=O)N2CCN(c3ccc(Cl)cc3)CC2)[n+](=O)c2ccccc2n1[O-],-,-,-,H37Rv,MIC,-,>6.25 µg/mL
CCC(CCCN)Nc1cc(OC)cc2c(C)ccnc12,-,-,-,H37Rv,MIC bound,BACTEC,>12.5 µg/mL
C=C[C@](C)(Cl)[C@@H](Br)/C=C/[C@](C)(Cl)CBr,-,-,-,H37Rv,MIC,-,3.13 µg/mL
COc1ccc(OC)c(Sc2nc(Cl)nc3nc[nH]c23)c1.O,-,-,6.25 µg/mL,H37Rv,inhibition,-,36%
C=O.CCN1c2ccccc2S(=O)c2cc(N=O)ccc21,-,-,12.5 µg/mL,H37Rv,inhibition,BACTEC,5%
COc1cccc2c(=O)n3c(nc12)C(=O)c1cc(I)ccc1-3,-,-,-,H37Rv,MIC,-,0.03 µg/mL
OCN1CCC23c4c5ccc(O)c4OC2C(O)C=CC3C1C5,-,-,-,H37Rv,MIC bound,BACTEC,>12.5 µg/mL
CCc1nc2ccccc2n1CCCNc1ccc(C)c(C)c1,-,-,-,H37Rv,MIC99,turbidity / fluorescence,0.65 µM
CC1=C(C(=O)Nc2ccccc2)C(c2ccc(N(C)C)cc2)C(C(=O)Nc2ccccc2)=C(C)N1,-,-,6.25 µg/mL,H37Rv,inhibition,resazurin,-1%
Cc1ccccc1NC(=O)c1c(C)n([O-])c2ccc(Cl)cc2[n+]1=O,VERO,-,6.25 µg/mL,H37Rv,inhibition,-,98%
CCCCOc1c(C(C)=O)cc(N)c2nccc(CC)c12,-,-,-,H37Rv,MIC,-,>6.25 µg/mL
CS(=O)(=O)C(c1nc2nnc(NC(=O)Nc3ccccc3)n2[nH]c1=O)c1nc2nnc(NC(=O)Nc3ccccc3)n2[nH]c1=O,-,-,12.5 µg/mL,H37Rv,inhibition,BACTEC,64%
CC1COc2c(N3CCN(C)CC3)c(F)cc3c(=O)c(C(=O)O)cn1c23,-,-,-,37 strains (drug-resistant),MIC90,-,2 µg/mL
Cc1ccc(NC(=O)c2cc(-c3ccc([N+](=O)[O-])s3)nc3ccc(C)cc23)cc1,-,-,-,H37Rv,MIC,fluorescence,>6.25 µg/mL
CCCCN=C(N=Nc1c(O)[nH]c2ccc(Br)cc12)SCC(=O)c1ccc(Br)cc1,-,-,-,H37Rv,MIC,-,12.5 µg/mL
Cc1cccc(C)c1Sc1ncnc2nc[nH]c12,-,-,6.25 µg/mL,H37Rv,inhibition,-,0%
CO[C@@]1(NC(=O)Cc2cccs2)C(=O)N2C(C(=O)O)=C(COC(N)=O)CS[C@@H]21,-,-,-,Isolate 5,MIC,-,>16 µg/mL
CCCCOc1ccc(NC(=S)Nc2ccc(N(C)C)cc2)cc1,-,-,-,H37RV #164,MIC,-,3.9 µg/mL
O=C(Nc1ccccc1)c1cc(-c2ccc([N+](=O)[O-])s2)nc2ccccc12,-,-,-,H37Rv,MIC,fluorescence,>6.25 µg/mL
CO[C@H]1/C=C/O[C@@]2(C)Oc3c(C)c(O)c4c(O)c(c(/C=N/N5CCN(Cc6ccccc6)CC5)c(O)c4c3C2=O)NC(=O)/C(C)=C\C=C\[C@H](C)[C@H](O)[C@@H](C)[C@@H](O)[C@@H](C)[C@H](OC(C)=O)[C@@H]1C,-,-,-,H37Rv,MIC,-,0.02 µg/mL
CC(CC(=O)NN)Nc1ccc2ccccc2c1,-,-,10 µg/mL,Drug-resistant,inhibition,-,100%
Cc1cc(C(C#N)c2nc3ccccc3[nH]2)nc(Cl)n1,-,-,6.25 µg/mL,H37Rv,inhibition,BACTEC,81%
CCOc1ccc2ccccc2c1C(=O)N[C@@H]1C(=O)N2[C@@H]1SC(C)(C)[C@@H]2C(=O)O,-,-,-,Isolate 4,MIC,-,>16 µg/mL
Cc1ccc2nc(SCC(=O)N/N=C/c3ccc(Br)cc3)n(-c3ccccc3)c(=O)c2c1,-,-,-,H37Rv,MIC,-,>6.25 µg/mL
c1cc2c(s1)CCOC21CCN(Cc2ccc3c(c2)OCCO3)CC1,-,MmpL3: Tyr252Cys,-,H37Rv,fold resistance,fluorescence,≥33.3
COc1ccc(N2CCN(C(=O)c3c(C)n([O-])c4cc(Cl)c(Cl)cc4[n+]3=O)CC2)cc1,-,-,6.25 µg/mL,H37Rv,inhibition,-,0%
COc1c(C(C)=O)cc([N+](=O)[O-])c2ncccc12,-,-,-,H37Rv,MIC,-,>6.25 µg/mL
O=C(Nc1nc(-c2ccc(Br)s2)cs1)c1cc(-c2ccc([N+](=O)[O-])s2)nc2ccccc12,-,-,-,H37Rv,MIC,fluorescence,>6.25 µg/mL
CCN(CC)CCOc1ccc(NC(=S)Nc2ccc(OCC(C)C)cc2)cc1,-,-,-,H37RV #302,MIC,-,31.3 µg/mL
CO[C@H]1/C=C/O[C@@]2(C)Oc3c(C)c(O)c4c(O)c(c(/C=N/N5CCN(C6CCCC6)CC5)c(O)c4c3C2=O)NC(=O)/C(C)=C\C=C\[C@H](C)[C@H](O)[C@@H](C)[C@@H](O)[C@@H](C)[C@H](O)[C@@H]1C,-,-,-,H37Rv,MIC,-,0.06 µg/mL
N[C@@H]1CN(c2c(F)cc3c(=O)c(C(=O)O)cn([C@@H]4C[C@@H]4F)c3c2Cl)CC12CC2,-,Gyrase Asp94Tyr,-,Clinical strain,MIC,resazurin,0.0625–0.125 µg/mL
Cc1c(C(=O)Nc2ccccc2)[n+](=O)c2ccccc2n1[O-],VERO,-,-,H37Rv,MIC,-,3.13 µg/mL
Cc1c(F)c(N2CCNC(C)C2)cc2c1c(=O)c(C(=O)O)cn2C1CC1,-,-,-,37 strains (drug-resistant),MIC50,-,1 µg/mL
O=C(Nc1cccc2c(C3CCCCC3)cc(C3CCCCC3)nc12)C(F)(F)F,-,-,6.25 µg/mL,H37Rv,inhibition,-,96%
CNC(=S)N=Nc1c(O)[nH]c2ccc(Br)cc12,-,-,-,H37Rv,MIC,-,>12.5 µg/mL
CCCCCCCCc1ccc2nc3n(c(=O)c2c1)-c1ccccc1C3=O,-,-,-,H37Rv,MIC,-,4 µg/mL
CC(=O)NNc1nc(C)c(C(=O)C=Cc2ccc(N(C)C)cc2)s1,-,-,6.25 µg/mL,H37Rv,inhibition,resazurin,12%
O=C(CSc1nc2ccccc2c(=O)n1-c1ccccc1)N=Nc1c(O)[nH]c2ccc(Br)cc12,-,-,-,H37Rv,MIC,-,>12.5 µg/mL
S=C(S)Nc1ccc(Cl)cc1,-,-,-,EMB-R,MIC,-,12.5 µg/mL
O=C1c2cc(C3OCCCO3)ccc2-n2c1nc1ccncc1c2=O,-,-,-,H37Rv,MIC,-,0.5 µg/mL
C=CCNC(=S)N=Nc1c(O)[nH]c2ccc(Br)cc12,-,-,-,H37Rv,MIC,-,>12.5 µg/mL
O=C(Cc1csc2nc(-c3ccccc3)cn12)N/N=C/c1ccccc1O,-,-,12.5 µg/mL,H37Rv,inhibition,-,0%
CCN(CC)CCN(C)c1ccc(CO)c2c1C(=O)c1ccccc1S2=O,-,-,12.5 µg/mL,H37Rv,inhibition,BACTEC,100%
COc1cccc(/C=N/NC(=O)CSc2nc3ccc(C)cc3c(=O)n2-c2ccccc2)c1,-,-,-,H37Rv,MIC,-,>6.25 µg/mL
COc1ccc(Sc2nc(Cl)nc3nc[nH]c23)cc1OC,-,-,-,H37Ra,MIC,-,>12.8 µg/mL
CCOc1ccc(-c2oc(/C=N/NS(=O)(=O)c3ccc(C)cc3)c([N+](=O)[O-])c2-c2ccc(OCC)cc2)cc1,-,-,-,H37Rv,MIC bound,BACTEC,>12.5 µg/mL
O=C(Nc1nc(-c2cccs2)cs1)c1cc(-c2ccc(-c3ccc([N+](=O)[O-])s3)s2)nc2ccccc12,-,-,-,H37Rv,MIC,fluorescence,6.25 µg/mL
Cc1c(CSc2nc(=O)[nH]c3nc[nH]c23)cccc1[N+](=O)[O-],-,-,6.25 µg/mL,H37Rv,inhibition,-,0%
O=[N+]([O-])c1ccc2oc([N+](=O)[O-])cc2c1,VERO,-,-,H37Rv,MIC,-,0.78 µg/mL
NNC(=O)c1ccncc1,-,-,-,76,MIC,-,<0.5 µg/mL
O=C(Nc1nc(-c2ccc(Br)s2)cs1)c1cc(-c2ccccc2)nc2ccccc12,-,-,-,H37Rv,MIC,fluorescence,>6.25 µg/mL
CCc1nc2ccc(C)cc2n1CCCCNc1cccc(Cl)c1,-,-,-,H37Rv,MIC99,turbidity / fluorescence,2.1 µM
CC(C)NCCCNC1=C(Cl)C(=O)c2ccccc2C1=O,-,-,-,H37Rv,MIC bound,BACTEC,>12.5 µg/mL
C[C@@H](O)[C@H]1C(=O)N2C(C(=O)O)=C(SCCN=CN)C[C@H]12,-,-,-,Isolate 1,MIC,-,4 µg/mL
Nc1ccc(-c2cc(C(=O)O)c3ccccc3n2)cc1,-,-,-,H37Rv,MIC,fluorescence,6.25 µg/mL
CC(=O)OCC1=C(C(=O)O)N2C(=O)[C@@H](NC(=O)Cc3cccs3)[C@H]2SC1,-,-,-,Isolate 1,MIC,-,>16 µg/mL
NNC(=O)CNc1ccc2ccccc2c1,-,-,-,H37Rv,EC50,-,0.5 µg/mL

A second listing of 6 rows from above:

smiles | cells | changes | dose | strain or isolate | measure | method | result
Cc1ccccc1NC(=O)c1c(C)n([O-])c2ccc(Cl)cc2[n+]1=O | VERO | - | 6.25 µg/mL | H37Rv | inhibition | - | 98%
CC(CC(=O)NN)Nc1ccc2ccccc2c1 | - | - | 10 µg/mL | Drug-resistant | inhibition | - | 100%
COc1cccc(/C=N/NC(=O)CSc2nc3ccc(C)cc3c(=O)n2-c2ccccc2)c1 | - | - | - | H37Rv | MIC | - | >6.25 µg/mL
COc1c(C(C)=O)cc([N+](=O)[O-])c2ncccc12 | - | - | - | H37Rv | MIC | - | >6.25 µg/mL
C=C[C@](C)(Cl)[C@@H](Br)/C=C/[C@](C)(Cl)CBr | - | - | - | H37Rv | MIC | - | 3.13 µg/mL
O=C(Cc1csc2nc(-c3ccccc3)cn12)N/N=C/c1ccccc1O | - | - | 12.5 µg/mL | H37Rv | inhibition | - | 0%